Results of unrelated studies side by side (data: NIAID ChemDB).

Common to all: cytotoxicity tests; cells: HeLa; endpoint: CC50

Conditions beyond the fields shown may differ between rows. CCn is the concentration with n% toxicity to the cells. Blank or dashed fields: not listed here.

smiles,read by,value
CCOC(=O)c1ccc(OCCCCC(=O)c2cc(C=O)n(C)c2)cc1,-,56 µM
C[C@@H]1CN(C(=O)C(=O)c2c[nH]c3c(-n4nccn4)ccnc23)CCN1C(=O)c1ccccc1,trypan blue,>100 µM
O=c1c(-c2ccccc2Cl)c(O)c2cccnc2n1O,-,<100 µM
CCCCCC1CN(C(=O)C(=O)c2c[nH]c3cccc(F)c23)CCN1C(=O)c1ccccc1,XTT,45 µM
CCOC(=O)[C@@]1(C)CC[C@]2(C)CC[C@]3(C)C(=CC(=O)[C@@H]4[C@@]5(C)CC/C(=N\OCC6(C)COC6)C(C)(C)[C@@H]5CC[C@]43C)[C@@H]2C1,MTT,38.35 µM
Cc1ccc(C(=O)CCCCCCOc2ccc(C3=NCCO3)cc2Cl)s1,-,>246 µM
CCCCCC1CN(C(=O)c2ccccc2)CCN1C(=O)C(=O)c1c[nH]c2cccc(F)c12,XTT,33 µM
CCOC(=O)[C@@]1(C)CC[C@]2(C)CC[C@]3(C)C(=CC(=O)[C@@H]4[C@@]5(C)CC/C(=N\OCc6cccc(Br)c6)C(C)(C)[C@@H]5CC[C@]43C)[C@@H]2C1,MTT,>100 µM
COC(=O)C(Cc1ccc(OCCCCC(=O)c2ccc(C)s2)cc1)NC(C)=O,-,86 µM
Cc1cc(C)n(-c2cccc(-c3ccnc4c3c(O)cc(=O)n4O)c2)n1,-,<100 µM
CCOC(=O)[C@@]1(C)CC[C@]2(C)CC[C@]3(C)C(=CC(=O)[C@@H]4[C@@]5(C)CC/C(=N\OCc6ccc(Br)cc6)C(C)(C)[C@@H]5CC[C@]43C)[C@@H]2C1,MTT,9.89 µM
COc1cnc(-c2nnn(C)n2)c2[nH]cc(C(=O)C(=O)N3CCN(C(=O)c4ccccc4)CC3)c12,trypan blue,>100 µM
Nc1ccc(-c2cccc(Cc3cc(=O)n(O)c4ncccc34)c2)cc1,-,<100 µM
CC(C)(C)C1CN(C(=O)c2ccccc2)CCN1C(=O)C(=O)c1c[nH]c2cccc(F)c12,XTT,105 µM
CCOC(=O)c1ccc(OCCCCC(=O)c2cc(C)[nH]c2C)cc1,-,204 µM
COc1ccc(NC(=O)c2c(O)c3cccnc3n(O)c2=O)cc1,-,<100 µM
CCOC(=O)[C@@]1(C)CC[C@]2(C)CC[C@]3(C)C(=CC(=O)[C@@H]4[C@@]5(C)CC/C(=N\OCc6ccc(Cl)cc6)C(C)(C)[C@@H]5CC[C@]43C)[C@@H]2C1,MTT,56.12 µM
Cc1ccc(C(=O)CCCCCCOc2ccc(C3=N[C@@H](C)CO3)cc2)s1,-,16 µM
Cc1ccn(-c2ccnc3c(C(=O)C(=O)N4CCN(C(=O)c5ccccc5)[C@H](C)C4)c[nH]c23)n1,trypan blue,>100 µM
O=c1c2cc(-c3ccccc3)ccc2c2cccnc2n1O,-,<100 µM
Cc1cc(CCCCCCCOc2ccc(C3=NCCO3)cc2)on1,-,37 µM
COc1cnc(-n2ccc(CO)n2)c2[nH]cc(C(=O)C(=O)N3CCN(C(=O)c4ccccc4)[C@H](C)C3)c12,trypan blue,>100 µM
CCOC(=O)c1ccc(OCCCCCc2ccc(Cl)s2)cc1,-,>284 µM
COc1cnc(C(N)=O)c2[nH]cc(C(=O)C(=O)N3CCN(C(=O)c4ccccc4)CC3)c12,trypan blue,>100 µM
C[C@@H]1CN(C(=O)c2ccccc2)CCN1C(=O)C(=O)c1c[nH]c2cccc(F)c12,XTT,>300 µM
CCOC(=O)c1c(-c2ccc(CCc3ccncc3)cc2)c2cccnc2n(O)c1=O,-,<100 µM
O=C(C(=O)N1CCN(C(=O)c2ccccc2)CC1)c1c[nH]c2c(-c3cn[nH]n3)ncc(F)c12,trypan blue,>100 µM
Cn1cc(C(=O)CCCCOc2ccc(C(=O)O)cc2)cc1C=O,-,>303 µM
CCOC(=O)c1ccc(OCCCCC(=O)c2ccc(C)s2)cc1,-,>267 µM
CCOC(=O)c1ccc(OCCCCC(=O)c2sccc2C)cc1,-,202 µM
CCOC(=O)[C@@]1(C)CC[C@]2(C)CC[C@]3(C)C(=CC(=O)[C@@H]4[C@@]5(C)CC/C(=N\OCc6cccc(C#N)c6)C(C)(C)[C@@H]5CC[C@]43C)[C@@H]2C1,MTT,>1000 µM
C[C@H]1CN(C(=O)C(=O)c2c[nH]c3c(-c4nccs4)ccnc23)CCN1C(=O)c1ccccc1,trypan blue,>100 µM
Clc1ccc(CCCCCOc2ccc(C3=NCCO3)cc2)s1,-,71 µM
CC(C)CC1CN(C(=O)C(=O)c2c[nH]c3cccc(F)c23)CCN1C(=O)c1ccccc1,XTT,69 µM

For reference, 3 entries again:

| smiles | read by | value |
|---|---|---|
| COc1cnc(-c2nnn(C)n2)c2[nH]cc(C(=O)C(=O)N3CCN(C(=O)c4ccccc4)CC3)c12 | trypan blue | >100 µM |
| CCCCCC1CN(C(=O)C(=O)c2c[nH]c3cccc(F)c23)CCN1C(=O)c1ccccc1 | XTT | 45 µM |
| CCOC(=O)[C@@]1(C)CC[C@]2(C)CC[C@]3(C)C(=CC(=O)[C@@H]4[C@@]5(C)CC/C(=N\OCc6cccc(C#N)c6)C(C)(C)[C@@H]5CC[C@]43C)[C@@H]2C1 | MTT | >1000 µM |